Pooled drug test results. Numbers come from NIAID ChemDB, via PubChem.

Common to all: whole-cell or culture tests; species: Enterococcus faecium; measure: MIC

Lines come from different laboratories, so protocols vary.

structure	strain or isolate	value
O=C(Nc1cccc(C2=NCCN2)c1)Nc1cccc(C(F)(F)F)c1	EF12 (vancomycin-resistant)	>300 µM
CC(=O)NC[C@H]1CN(c2ccc(NC(=O)c3ccco3)c(F)c2)C(=O)O1	UC12712 (vancomycin-resistant)	16 µg/mL
CNc1c(F)cc2c(=O)c(C(=O)O)cn(-c3cc(N)c(F)cc3F)c2c1C	W1140	2 µg/mL
CN(C)c1cc(CNCC(C)(C)C)c(O)c2c1C[C@H]1C[C@H]3[C@H](N(C)C)C(=O)C(C(N)=O)=C(O)[C@@]3(O)C(=O)C1=C2O	494 (vancomycin-resistant)	0.5 µg/mL
CC(=O)NC[C@H]1CN(c2ccc(NC(=O)C3=CSNN3)c(F)c2)C(=O)O1	UC12712 (vancomycin-resistant)	4 µg/mL
CC(=O)NCC1CN(c2ccc(N3CCN(c4ccccn4)CC3)c(F)c2)C(=O)O1	UC12712 (vancomycin-resistant)	8 µg/mL
Cc1c(N)c(F)cc2c(=O)c(C(=O)O)cn(-c3cc(N)c(F)cc3F)c12	ATCC51519	8 µg/mL
CC(=O)NC[C@H]1CN(c2ccc(SCCO)c(F)c2)C(=O)O1	UC12712 (vancomycin-resistant)	4 µg/mL
CC(=O)NCC1CN(c2ccc(N3CCCCC3)c(F)c2)C(=O)O1	UC12712 (vancomycin-resistant)	32 µg/mL
CC(=O)NC[C@H]1CN(c2ccc(C(=O)Nc3nncs3)c(F)c2)C(=O)O1	UC12712 (vancomycin-resistant)	4 µg/mL
CC(=O)NC[C@H]1CN(c2ccc(N(C)C(=O)c3ccc([N+](=O)[O-])o3)c(F)c2)C(=O)O1	UC12712 (vancomycin-resistant)	8 µg/mL
CC(=O)NC[C@H]1CN(c2ccc(C(=O)Nc3ccccn3)c(F)c2)C(=O)O1	UC12712 (vancomycin-resistant)	8 µg/mL
O=C(Nc1ccc(C(F)(F)F)cc1)NN(CC(O)CN1CCOCC1)C(=O)Nc1ccc(C(F)(F)F)cc1	EF12 (vancomycin-resistant)	>300 µM
Cc1ccc(-c2ccc(O)c3c2C[C@H]2C[C@H]4[C@H](N(C)C)C(=O)C(C(N)=O)=C(O)[C@@]4(O)C(=O)C2=C3O)cc1N	494 (vancomycin-resistant)	2 µg/mL
CC(=O)NC[C@H]1CN(c2ccc(N3C[C@@H]4C(N)[C@@H]4C3)c(F)c2)C(=O)O1	UC12712 (vancomycin-resistant)	2 µg/mL
O=C(CSc1ccccc1)NC[C@H]1CN(c2ccc(N3CCOCC3)c(F)c2)C(=O)O1	UC12712 (vancomycin-resistant)	32 µg/mL
CC(=O)NC[C@H]1CN(c2ccc(NC(=O)c3ccc(Br)o3)c(F)c2)C(=O)O1	UC12712 (vancomycin-resistant)	8 µg/mL
O=C(CCC(=O)Nc1cc(C(F)(F)F)cc(C(F)(F)F)c1)Nc1cc(C(F)(F)F)cc(C(F)(F)F)c1	EF12 (vancomycin-resistant)	>300 µM
O=C(NC[C@H]1CN(c2ccc(C3CCS(=O)(=O)CC3)c(F)c2)C(=O)O1)Nc1ccc(Cl)c(Cl)c1	UC12712 (vancomycin-resistant)	>64 µg/mL
CC(=O)NC[C@H]1CN(c2ccc(Sc3sccc3[N+](=O)[O-])c(F)c2)C(=O)O1	UC12712 (vancomycin-resistant)	4 µg/mL
CC(=O)NC[C@H]1CN(c2ccc3c(c2)OCc2nccn2-3)C(=O)O1	27251	1 µg/mL
CNC(=O)c1ccc(N2C[C@H](CNC(C)=O)OC2=O)cc1F	UC12712 (vancomycin-resistant)	8 µg/mL
CN(C)c1cc(CNC2CCCC2)c(O)c2c1C[C@H]1C[C@H]3[C@H](N(C)C)C(=O)C(C(N)=O)=C(O)[C@@]3(O)C(=O)C1=C2O	494 (vancomycin-resistant)	0.5 µg/mL
O=C(CC(=O)Nc1cc(C(F)(F)F)cc(C(F)(F)F)c1)Nc1cccc(C2=NCCN2)c1	EF12 (vancomycin-resistant)	53 µM
CC(=O)NC[C@H]1CN(c2ccc(NS(C)(=O)=O)c(F)c2)C(=O)O1	UC12712 (vancomycin-resistant)	16 µg/mL
COCC(=O)N1CCC(Oc2ccc(N3C[C@H](CNC(C)=O)OC3=O)cn2)CC1	OC3312 vancomycin-resistant	>64 µg/mL
O=C(/C=C/c1ccccc1)NC[C@H]1CN(c2ccc(N3CCOCC3)c(F)c2)C(=O)O1	UC12712 (vancomycin-resistant)	8 µg/mL
Cc1c(NCCCO)c(F)cc2c(=O)c(C(=O)O)cn(-c3cc(N)c(F)cc3F)c12	W1418	64 µg/mL
O=C(Nc1cccc(C2=NCCN2)c1)Nc1cccc(C2=NCCN2)c1	EF12 (vancomycin-resistant)	189 µM
CN(C)c1cc(CNC2CCCCC2)c(O)c2c1C[C@H]1C[C@H]3[C@H](N(C)C)C(=O)C(C(N)=O)=C(O)[C@@]3(O)C(=O)C1=C2O	494 (vancomycin-resistant)	0.5 µg/mL
C=CCCC(=O)NC[C@H]1CN(c2ccc(N3CCOCC3)c(F)c2)C(=O)O1	UC12712 (vancomycin-resistant)	16 µg/mL
CC(=O)NC[C@H]1CN(c2ccc(C(=O)Nc3ncn[nH]3)c(F)c2)C(=O)O1	UC12712 (vancomycin-resistant)	16 µg/mL
COC(=O)CCn1c(C)nc([N+](=O)[O-])c1Sc1ccc(N2C[C@H](CNC(C)=O)OC2=O)cc1F	UC12712 (vancomycin-resistant)	>64 µg/mL
CO/N=C/c1ccc(/C=C/C(=O)NC[C@H]2CN(c3ccc(C(N)=O)c(F)c3)C(=O)O2)cc1	UC12712 (vancomycin-resistant)	2 µg/mL
O=C(NNC(=O)Nc1ccccc1C(F)(F)F)Nc1cc(C(F)(F)F)cc(C(F)(F)F)c1	EF12 (vancomycin-resistant)	>422 µM
CSCC(=O)NC[C@H]1CN(c2ccc(C(N)=O)c(F)c2)C(=O)O1	UC12712 (vancomycin-resistant)	8 µg/mL
CC(=O)NC[C@H]1CN(c2ccc(SCSC#N)c(F)c2)C(=O)O1	UC12712 (vancomycin-resistant)	8 µg/mL

4 of the rows above, restated:

structure,strain or isolate,value
C=CCCC(=O)NC[C@H]1CN(c2ccc(N3CCOCC3)c(F)c2)C(=O)O1,UC12712 (vancomycin-resistant),16 µg/mL
Cc1c(NCCCO)c(F)cc2c(=O)c(C(=O)O)cn(-c3cc(N)c(F)cc3F)c12,W1418,64 µg/mL
Cc1c(N)c(F)cc2c(=O)c(C(=O)O)cn(-c3cc(N)c(F)cc3F)c12,ATCC51519,8 µg/mL
O=C(CCC(=O)Nc1cc(C(F)(F)F)cc(C(F)(F)F)c1)Nc1cc(C(F)(F)F)cc(C(F)(F)F)c1,EF12 (vancomycin-resistant),>300 µM